Compound potency records, mixed from different reports. Data source: NIAID ChemDB in PubChem.

Common to all: growth or infection tests; species: Mycobacterium tuberculosis

MIC bound comes from a single tested concentration.

SMILES | read by | strain | read-out | dose | changes | setting | value
CCc1ccc([C@H]2C[C@@H](C(F)(F)F)n3ncc(C(=O)NCc4ccc(OC)cc4)c3N2)cc1 | fluorescence | H37Rv | fold resistance |  | MmpL3: Tyr252Cys |  | 4
O=c1c(Cl)c2oc3ccc([N+](=O)[O-])cc3nc-2c(Cl)c1Cl | BACTEC | H37Rv | inhibition | 12.5 µg/mL |  |  | 62%
Cl.N=C1C=C(N)C(=O)c2ccccc21 |  | H37Rv | MIC |  |  |  | 50 µg/mL
C(CNC12CC3CC(CC(C3)C1)C2)NCC12CC3CC(CC(C3)C1)C2 |  |  | MIC |  |  |  | 18.8 µM
O=c1oc2ccc(F)cc2c(=S)n1-c1ccc(Cl)c(Cl)c1 |  | My 331/88 | MIC |  |  | 14 d | 0.5 µM
CO[C@H]1/C=C/O[C@@]2(C)Oc3c(C)c(O)c4c(=O)c(c5oc6cc(N7CCN(C(C)C)CC7)cc(=O)c6nc5c4c3=C2O)NC(=O)/C(C)=C\C=C\[C@H](C)[C@H](O)[C@@H](C)[C@@H](O)[C@@H](C)[C@H](OC(C)=O)[C@@H]1C |  | 2230 (rifampin-resistant) | MBC |  |  |  | 0.4 µg/mL
CCN(CC)CCSCCN(CC)CC.Cl |  | H37Rv | MIC |  |  |  | >100 µg/mL
O=c1[nH]c2c([N+](=O)[O-])cccc2c(O)c1N=Nc1ccc(Cl)c(Cl)c1 | resazurin | H37Rv | inhibition | 6.25 µg/mL |  |  | 79%
O=C(CC(=O)c1ccccc1)Nc1ccc(S(=O)(=O)N(c2ccccc2)c2ccccc2)cc1 |  | H37Rv | MIC |  |  |  | 50 µg/mL
Fc1ccc(CCNCCNCCc2ccc(Cl)cc2Cl)cc1 |  |  | MIC |  |  |  | 25 µM
CC1COc2c(N3CCN(C)CC3)c(F)cc3c(=O)c(C(=O)O)cn1c23 | broth dilution | STR-resistant 136570 | MIC |  |  |  | 0.5 µg/mL
NC[C@H]1O[C@H](O[C@H]2[C@H](O)[C@@H](O[C@H]3O[C@H](CO)[C@@H](O)[C@H](N)[C@H]3O)[C@H](N)C[C@@H]2N)[C@H](O)[C@@H](O)[C@@H]1O |  | Isolate 16 | MIC |  |  |  | 1 µg/mL
Cc1cccc(C(=O)O)n1 |  | H37Rv | MIC |  |  |  | >100 µg/mL
Cc1ccccc1Sc1ncnc2nc[nH]c12 |  | H37Rv | MIC90 |  |  |  | >12.5 µg/mL
O=C(NCCO)N1c2ccccc2Sc2ccccc21 | resazurin | Clinical isolate | MIC |  |  |  | 4 µg/mL
O=C(Nc1ccc(OC(F)(F)F)cc1)c1ccc(CO[C@@H]2COc3nc([N+](=O)[O-])cn3C2)cc1 | resazurin |  | MIC90 |  |  |  | 0.06 µM
CO[C@H]1/C=C/O[C@@]2(C)Oc3c(C)c(O)c4c(O)c(c(/C=N/N5CCN(C/C=C/c6ccccc6)CC5)c(O)c4c3C2=O)NC(=O)/C(C)=C\C=C\[C@H](C)[C@H](O)[C@@H](C)[C@@H](O)[C@@H](C)[C@H](OC(C)=O)[C@@H]1C |  | 2227 (MDR) | MIC |  |  |  | 1 µg/mL
CC1(C)N=C(c2ccccc2)C(=O)N1CC(=O)Nc1ccc2c(c1)OCO2 | resazurin | Clinical isolate | MIC |  |  |  | 16 µg/mL
O=c1[nH]c2cc([N+](=O)[O-])ccc2c(O)c1N=Nc1ccccc1-c1ccccc1 | resazurin | H37Rv | MIC |  |  |  | <6.25 µg/mL
CO[C@H]1/C=C/O[C@@]2(C)Oc3c(C)c(O)c4c(O)c(c(/C=N/N5CCN(C)CC5)c(O)c4c3C2=O)NC(=O)/C(C)=C\C=C\[C@H](C)[C@H](O)[C@@H](C)[C@@H](O)[C@@H](C)[C@H](OC(C)=O)[C@@H]1C |  | Isolate 15 | MIC |  |  |  | <0.03 µg/mL
COc1cccc2c1oc1c(OC)ccc(NC(C)=O)c12 |  | H37Rv | MIC |  |  |  | >100 µg/mL
CO[C@H]1/C=C/O[C@@]2(C)Oc3c(C)c(O)c4c(=O)c(c5oc6cc(N7CCN(CC(C)C)CC7)cc(=O)c6nc5c4c3=C2O)NC(=O)/C(C)=C\C=C\[C@H](C)[C@H](O)[C@@H](C)[C@@H](O)[C@@H](C)[C@H](OC(C)=O)[C@@H]1C |  | 2912 (rifampin-sensitive) | MIC |  |  |  | 0.006 µg/mL
CCCCCc1cc(OC)c2ccccc2n1 |  | MT10 | MIC |  |  |  | 167 µg/mL
Cc1ccc(Sc2ncccn2)cc1 |  | H37Ra | MIC |  |  |  | >12.8 µg/mL
Fc1cccc(-n2c(=S)oc3ccc(Cl)cc3c2=S)c1 |  | My 331/88 | MIC |  |  | 21 d | 4 µM
C[C@@H]1CN(c2c(F)c(N)c3c(=O)c(C(=O)O)cn(C4CC4)c3c2F)C[C@H](C)N1 |  | S-24M (susceptible) | MIC |  |  |  | 0.2 µg/mL
Fc1ccccc1CCNCCNCCCc1ccccc1 |  |  | MIC |  |  |  | 25 µM
Cl.NNC(=O)Nc1ccccc1 |  | H37Rv | MIC |  |  |  | 100 µg/mL
NNC(=O)c1ccncc1 |  | Isolate 10 | MIC |  |  |  | 2 µg/mL
CC(C)(C)c1ccc(CSc2nc(=O)[nH]c3nc[nH]c23)cc1 |  | H37Rv | MIC90 |  |  |  | >6.25 µg/mL
CCOC(=O)Nc1cc(NC(C)C(O)c2ccc(O)cc2)c([N+](=O)[O-])c(N)n1 |  | H37Rv | EC50 |  |  |  | >12.5 µg/mL
CC[C@H]1OC(=O)[C@H](C)[C@@H](O[C@H]2C[C@@](C)(OC)[C@@H](O)[C@H](C)O2)[C@H](C)[C@@H](O[C@@H]2O[C@H](C)C[C@H](N(C)C)[C@H]2O)[C@](C)(O)C[C@@H](C)CN(C)[C@H](C)[C@@H](O)[C@]1(C)O |  | ATCC 35822 | MBC |  |  |  | >8 µg/mL
CC(CNCC(c1ccccc1)c1ccccc1)N[C@H]1C[C@H]2C[C@@H]([C@@H]1C)C2(C)C |  |  | MIC |  |  |  | 50 µM
Fc1ccc(-n2c(=S)oc3ccc(F)cc3c2=S)cc1 |  | My 331/88 | MIC |  |  | 21 d | 2 µM
O=c1c(S(=O)(=O)c2cccc(F)c2)c[nH]c2ccc(F)cc12 | resazurin | Clinical isolate | MIC |  |  |  | 16 µg/mL
CC1CN(c2cc3c(cc2F)c(=O)c(C(=O)O)cn3-c2ccc(F)cc2F)CCN1 |  | H37Rv | MBC |  |  |  | 4 µg/mL
CN[C@@H](C)[C@@H](O)c1ccccc1 |  | H37Rv | MIC |  |  |  | >100 µg/mL
NNC(=O)c1ccncc1 |  | S-2M (susceptible) | MIC |  |  |  | 0.025 µg/mL
C[C@@H]1[C@@H](NCCNC[C@@H]2CC[C@H]3C[C@@H]2C3(C)C)C[C@H]2C[C@@H]1C2(C)C |  |  | MIC |  |  |  | 6.25 µM
COc1cc2c3cc1COc1c(OC)c(OC)cc4c1C(Cc1ccc(OC)c(c1)Oc1ccc(cc1)C3N(C)CC2)N(C)CC4 |  | H37Rv | MIC |  |  |  | >100 µg/mL
CCCOC(=O)C1=C(C)OC23OC(N)=C(C#N)C12C(=O)c1ccccc13 | resazurin | Clinical isolate | MIC |  |  |  | 16 µg/mL
COc1cc([C@H]2OC(=O)C3C2C(=O)O[C@@H]3c2ccc(O)c(OC)c2)ccc1O | BACTEC | H37Rv | MIC bound |  |  |  | >12.5 µg/mL
O=[N+]([O-])c1cn2c(n1)OC[C@@H](OCc1ccc(COc3ccc(OC(F)(F)F)cc3)nc1)C2 | low oxygen |  | MIC90 |  |  |  | 5.9 µM
C[C@@H]1CN(c2c(F)c(N)c3c(=O)c(C(=O)O)cn(C4CC4)c3c2F)C[C@H](C)N1 |  | MDR | MIC90 |  |  |  | 1 µg/mL
Fc1ccc(CCNCCNC(c2ccccc2)c2ccccc2)cc1 |  |  | MIC |  |  |  | 50 µM
CCOC(=O)Nc1cc2ncc(C(=O)N(C)c3ccccc3)nc2c(N)n1 |  | H37Rv | EC50 |  |  |  | >12.5 µg/mL
CC(=O)SCC(=O)Nc1nc2ccccc2s1 |  | H37Rv | MIC |  |  |  | >100 µg/mL
NC1CCN(c2c(F)cc3c(=O)c(C(=O)O)cn(C4CC4)c3c2Cl)C1 |  | ATCC35838 | MIC |  |  |  | 0.06 µg/mL
Nc1ccc(Br)cc1-c1ccccc1 |  | H37Rv | MIC |  |  |  | 50 µg/mL
O=[N+]([O-])c1cn2c(n1)OC[C@@H](OCc1ccc(-c3ccc(Oc4ccc(F)cc4)nc3)cc1)C2 | resazurin |  | MIC90 |  |  |  | 0.02 µM
CC(=O)Oc1cccc2c(C(=O)O)cccc12 |  | H37Rv | MIC |  |  |  | >100 µg/mL
CO[C@H]1/C=C/O[C@@]2(C)Oc3c(C)c(O)c4c(O)c(c(/C=N/N5CCN(C6CCCC6)CC5)c(O)c4c3C2=O)NC(=O)/C(C)=C\C=C\[C@H](C)[C@H](O)[C@@H](C)[C@@H](O)[C@@H](C)[C@H](OC(C)=O)[C@@H]1C |  | H37Rv | MIC |  |  |  | 0.03 µg/mL
O=c1cc[nH]c2cc(Cl)ccc12 |  | H37Rv | MIC |  |  |  | >100 µg/mL
O=[N+]([O-])c1cn2c(n1)OC[C@@H](OCc1ccc(CNc3ccc(C(F)(F)F)nc3)cc1)C2 | low oxygen |  | MIC90 |  |  |  | 4.2 µM
O=C([C@@H](O)CO)N1CC=C(c2c(F)cc(N3C[C@H](COc4ccon4)OC3=O)cc2F)CC1 |  | AZD5847-resistant 8.8 | MIC |  | T460C Cys154Arg |  | 16 µg/mL
OCc1ccccc1Sc1ccccc1CNCCNCc1cccc(F)c1 |  |  | MIC |  |  |  | 25 µM
CCOC(=O)Nc1cc2[nH]c(-c3ccc([N+](=O)[O-])cc3)nc2c(N(CCc2ccccc2)Cc2ccccc2)n1 |  | H37Rv | EC50 |  |  |  | <12.5 µg/mL
O=[N+]([O-])c1cn2c(n1)OC[C@@H](OCc1ccc(N3CCN(c4ccc(C(F)(F)F)cn4)CC3)nc1)C2 | resazurin |  | MIC90 |  |  |  | 0.04 µM
CC[C@H]1OC(=O)[C@H](C)[C@@H](O[C@H]2C[C@@](C)(OC)[C@@H](O)[C@H](C)O2)[C@H](C)[C@@H](O[C@@H]2O[C@H](C)C[C@H](N(C)C)[C@H]2O)[C@](C)(O)C[C@@H](C)C(=O)[C@H](C)[C@@H](O)[C@]1(C)O |  | DRUG-SUS | MBC90 |  |  |  | >8 µg/mL
COc1ccc(CSc2ccncc2)cc1 |  | H37Ra | MIC |  |  |  | >12.8 µg/mL
CCCCC(N)C(=O)O |  | H37Rv | MIC |  |  |  | >100 µg/mL
COc1ccc(CCC2CCc3ccccc3N2C)cc1OC |  | MT2 | MIC |  |  |  | >322 µg/mL
O=c1oc2ccc(Cl)cc2c(=S)n1-c1ccc(C(F)(F)F)cc1 |  | My 331/88 | MIC |  |  | 21 d | 4 µM
CCOC(=O)Nc1cc(NC(C)C(=O)c2ccc(O)cc2)c([N+](=O)[O-])c(N)n1 |  | H37Rv | EC50 |  |  |  | >12.5 µg/mL
COc1cc(-c2nn3c(C(C)(C)C)nnc3s2)cc(OC)c1OC | resazurin | Clinical isolate | MIC |  |  |  | 16 µg/mL
C[C@H]1COc2c(N3CCN(C)CC3)c(F)cc3c(=O)c(C(=O)O)cn1c23 |  | 001-005 (DRUG-SUS) | MBC |  |  |  | 2 µg/mL
O=C(O)C(=O)Cc1ccc([N+](=O)[O-])cc1 |  | H37Rv | MIC |  |  |  | 50 µg/mL
CC(C)(C)CC(C)(C)NCCNCC12CC3CC(CC(C3)C1)C2 |  |  | MIC |  |  |  | 4.7 µM
Cc1ccc(S(=O)(=O)[O-])cc1N.[Na+] |  | H37Rv | MIC |  |  |  | >100 µg/mL
CSc1ccc(NC(=O)c2cc3c(s2)CN(C2CC2)C3)cc1 | resazurin | Clinical isolate | MIC |  |  |  | 16 µg/mL
COc1cc(NC(C)=O)c2ncccc2c1 |  | H37Rv | MIC |  |  |  | >100 µg/mL
NNC(=O)c1ccncc1 | broth dilution | INH resistant (ATCC 35820) | MIC |  |  |  | >128 µg/mL
Cl.Nc1ccc(C(=O)O)cc1N |  | H37Rv | MIC |  |  |  | >100 µg/mL
CO[C@H]1/C=C/O[C@@]2(C)Oc3c(C)c(O)c4c(O)c(c5c(c4c3C2=O)NC2(CCN(CC(C)C)CC2)N=5)=NC(=O)/C(C)=C\C=C\[C@H](C)[C@H](O)[C@@H](C)[C@@H](O)[C@@H](C)[C@H](OC(C)=O)[C@@H]1C |  | Strain 81 (F514 deletion) | MIC |  |  |  | 0.25 µg/mL
O=c1[nH]c2cc([N+](=O)[O-])ccc2c(O)c1N=Nc1ccc(Cl)c(F)c1 | resazurin | H37Rv | inhibition | 6.25 µg/mL |  |  | 70%
CCOC(=O)Nc1cc(NC(O)CCCN(CC)CC)c2ncc(-c3cc(OC)c(OC)c(OC)c3)nc2n1 |  | H37Rv | EC50 |  |  |  | >12.5 µg/mL
Clc1cc2nccc(Cl)c2cc1SCc1ccccc1 |  | H37Rv | MIC |  |  |  | >100 µg/mL
Cc1cccc(CSc2ccccn2)c1 |  | H37Ra | MIC |  |  |  | >12.8 µg/mL
COc1ccc(C)c2c1N(CC(O)CO)CCC2 |  | H37Rv | MIC |  |  |  | >100 µg/mL
O=c1oc2ccc(-c3ccccc3)cc2c(O)c1N=Nc1c(Cl)cccc1Cl | resazurin | H37Rv | inhibition | 6.25 µg/mL |  |  | 23%
COc1cccc(CSc2ccncc2)c1 |  | H37Rv | MIC90 |  |  |  | >6.25 µg/mL
Cc1ccc(N)cc1O |  | H37Rv | MIC |  |  |  | >100 µg/mL

Again, the opening 4 rows:

{"SMILES": "CCc1ccc([C@H]2C[C@@H](C(F)(F)F)n3ncc(C(=O)NCc4ccc(OC)cc4)c3N2)cc1", "read by": "fluorescence", "strain": "H37Rv", "read-out": "fold resistance", "changes": "MmpL3: Tyr252Cys", "value": "4"}
{"SMILES": "O=c1c(Cl)c2oc3ccc([N+](=O)[O-])cc3nc-2c(Cl)c1Cl", "read by": "BACTEC", "strain": "H37Rv", "read-out": "inhibition", "dose": "12.5 µg/mL", "value": "62%"}
{"SMILES": "Cl.N=C1C=C(N)C(=O)c2ccccc21", "strain": "H37Rv", "read-out": "MIC", "value": "50 µg/mL"}
{"SMILES": "C(CNC12CC3CC(CC(C3)C1)C2)NCC12CC3CC(CC(C3)C1)C2", "read-out": "MIC", "value": "18.8 µM"}

A number after MIC or MFC names an inhibition level or a share of isolates. An empty or dashed field is not shown. Neighbouring rows are from separate reports. ECn is the concentration giving n% inhibition of infection, replication or growth. Fold resistance: result on the changed form divided by that on wild type. Percent inhibition refers to the dose given; in toxicity tests it is the harm to the cells.